The results in this text go back to the supplement of paper PMC9931576.

Human monoclonal antibodies against the spike receptor-binding domain (heavy:light variable regions). IC50 against pseudoviruses bearing the spike of naturally observed variants; lower = stronger; >10 µg/ml means not reached at the top dose. No active / inactive call. The stated detection limit is 0.0005 µg/ml; values near or below 0.001 µg/ml lie at the floor of the assay. A value given as a limit tells only on which side of the number the result lay.

Sequences and labels used below:
B1: BD56-1092 (protein)
chain 1: QVQLVQSGAEVKKPGSSVKVSCKASGGTFSSYAINWVRQAPGQGLEWMGRIIPMFGTVNYAQKFQGRVTINADESTSTAYMELSSLRSEDTAVYYCARGMFGHIVVVVAAIGFDIWGQGTMVTVAS
chain 2: QSVLTQPPSVSGAPGQRVTISCTGSSSNIGAGYDVHWYQQLPETAPKLLIYDSTNRPSGVSDRFSGSKSGTSASLAITGLQAEDEADYYCQSYDNDLSGMLFGGGTKLTVL
B2: BD58-0448 (protein)
chain 1: QVTLRESGPALVKPTQTLTLTCTFSGFSLSTSGMCVSWIRQPPGKALEWLARIDWDDDKYYNTSLKTRLTISKDTSKNQVVLTMTNMDPVDTATYYCARIRETDYYGSGSYFYGMDVWGQGTTVTVSS
chain 2: DIVMTQSPLSLPVTPGEPASISCRSSQSLLHNNGYNYLDWYLQRPGQSPQLLIYLGSDRASGVPDRFSGSGSGTDFTLKISRVEAEDVGVYYCMQALQTPPTFGQGTKLEIK
B3: BD56-976 (protein)
chain 1: QVQLVESGGGVVQPGRSLRLSCAASGFTFSKYAMHWVRQAPGKGLEWVAVLSYDGTGTYYGDSVKGRFTVSRDNSKNTLYLQMNSLRPEDTAVYYCAKGGQYADYVRGGDYWGQGTLVIVSS
chain 2: DIQMTQSPSSLSASVGDRVIITCQASQDINYYLNWYQQKPGKAPKLLIYDAADLEAGVPSRFSGTGSGTDFTLTISSLQPEDFATYYCQQYNILPLTFGGGTKVEIK
B4: BD56-967 (protein)
chain 1: QVQLVESGGGVVQPGRSLRLSCTVSGFTFRSYGMHWVRQAPGKGLEWVAVISYDGSDKFYPDSVKGRFTISRDNSKNTLYLQMNSLRAEDTAVYYCAKTVAPYCSGGNCLSGYFDYWGQGILVTVSS
chain 2: DIQMTQSPSSLSASVGDRVTITCQASQDISNFLNWYQQKPGKAPKLLMYDISNLETGVPSRFSGSGSGTDFTFTISSLQPEDIATYYCQQYDSLPLTFGGGTKVEIK
B5: BD56-953 (protein)
chain 1: EVQLVESGGGLVQPGGSLRLSCAASGITVSSNYMRWVRQAPGKGLEWVSLIYSGGSTFYADSVKGRFTVSRDSSKNTLYLQMNSLRYEDTAVYYCARDLDVVGAMDVWGQGTTVTVSS
chain 2: EIVLTQSPGTLSLSPGERATLSCRASQSFSTKFLAWYQQIPGQSPRLLIYGASSRATGVPDRFSGSGSGTDFTLTISRLEAEDFAVYYCQQYGSSPLTFGGGTRVEIK
B6: BD56-1076 (protein)
chain 1: QVQLVQSGPEVKKPGASVKVSCKASGYSFITYGISWVRQAPGQGLEWMGWISAYDGHTNYAQKLQGRVTLTTDTSTTTAYMELRSLKSDDTAVYYCARDLERKYEVSATDAFDIWGQGTMVTVSS
chain 2: SYELTQPSSVSVSPGQTARITCSGDLLAQKFARWFQQKPGQAPVMVIYKDSERPSGIPERFSGSSSGTTVTLTISGAQVADEADYYCYSATDNIRVFGGGTKLTVL
B7: BD56-962 (protein)
chain 1: EVQLVQSGTEVKKPGESLKISCKGSGFSFISYWIGWVRQMPGKGLEWMGIIYPGDSDTRYAPSVQGQVTISADKSISTAYLQWSSLKASDTAMYYCARREGTYSSGWEVWGQGTLVTVSS
chain 2: QSVLTQPPSASGTPGQRVTISCSGSSSNIGSNGVNWYQQLPGTAPTLLIYNNNQRPSGVPDRFSGSKSGTSASLAISGLQSEDEADYYCAAWDDTLNGVLFGGGTKLTVL
B8: BD56-974 (protein)
chain 1: QVQLVQSGAEVKKPGSSVKVSCKASGGTFSSYPIAWVRQAPGHGLEWMGGIIPIFGTPNYAQMFQGRVTITADESTSTAFMELRSLRSEDTAMYYCARSQSETGAYNWFDPWGQGTLVTVSS
chain 2: SYVLTQTPSVSVAPGKTARITCGGNNIGSKSVHWYQQRPGQAPVLVVFDDSDRPSGIPERFSGSNSGNTATLTISRVEAGDEADYYCQVWDSRSDHYVFGTGTKVTVL
B9: BD56-955 (protein)
chain 1: EVQLVESGGGVIQPGGSLRLSCAVSGFTFDDYAMHWVRQAPGKGLEWVSLISGDGGNTYYADSVKGRFTISRDNSKNSLYLQMDSLKTEDTALYYCASLSGHGFLYFYSYGMDVWGQGTTVTVSS
chain 2: DVVMTQSPLSLSVTPGQPASISCKSSRSLLNADRKTYLFWYLQKPGQSPQLLIYEVSSRFSGVPDRFSGSGSGTDFTLKISRVEAEDVGVYYCMQGIHLPYTFGQGTKLEIK
B10: BD56-959 (protein)
chain 1: EVQLVESGGGVVQPGGSLRLSCAVSGFTFDDYAMHWVRQAPGKGLEWVSLISGDGGNTYYADSVKGRFTISRDNSKNSLYLQMDSLKTEDTALYYCATLSGHGFLYYYYYGMDVWGQGTTVTVSS
chain 2: DVVMTQSPLSLSVTPGQPASISCRSSRSLLNADRKTYLFWYLQKPGQSPQLLIYEVSSRFSGVPDRFSGSGSGTDFTLKISRVEAEDVGVYYCMQGIHLPYTFGQGTKLEIK
B11: BD58-0574 (protein)
chain 1: QLQLQESGPGLVKPSETLSLTCTVSGGSISSSSHFWGWIRQPPGKGLEWIGNVYYSGGSTYCNPSLKSRLTISVDTSKNQLSLKLSSVAAADTAVYYCARLGRFLTTVTPGAFDIWGQGTMVSVSS
chain 2: QSALTQPASVSGSPGQSITISCTGTSSDVGSYNLVSWYQQHPGKAPKLMIYEVTKRPSGVSNRFSGSKSGDTASLTISGLQAEDEADYYCCAYAGIITLFGGGTKLTVL
B12: BD56-972 (protein)
chain 1: QVQLVQSGAEMKKPGASVKLSCKASGYTFTNNYIHWVRQAPGQGLEWMGIINPSGGSTSYAQKFQGRVTLSRDTSTPTVYMELSSLKSEDTAVYYCARELSITSVEWEPADYYYGMDAWGQGSKVTVSS
chain 2: SFDLNQPSSVSVSPGQTASITCSGDELGDKSVSWYRQKSGQSPSLFIYQDTKRLSGIPERFSGSRSGKTATLTISGAQPMDEAAYYCQAWDSRTARVVFGGGTKLTVL

One assay addresses SARS-CoV-2 Omicron BA.1 spike pseudovirus. Briefly: pseudovirus neutralization IC50; higher = weaker neutralization. The method, then: (§1)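 Single-round VSV luciferase pseudovirus mixed with antibody dilutions for 1 h and put on Huh-7 cells for about a day; IC50 from the dose curve.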
For the molecule B1, the “pseudovirus neutralization IC50” value was above 10 µg/mL.

With B2, the “pseudovirus neutralization IC50” value was determined as 0.0152 µg/mL.

In the case of B3, the “pseudovirus neutralization IC50” value was above 10 µg/mL.

For B4, the “pseudovirus neutralization IC50” value was above 10 µg/mL.

Turning to B5, the “pseudovirus neutralization IC50” value worked out at 0.176 µg/mL.

For the molecule B6, the “pseudovirus neutralization IC50” value stood at 1.69 µg/mL.

In the case of B7, the “pseudovirus neutralization IC50” value came out at 0.328 µg/mL.

For B8, the “pseudovirus neutralization IC50” value turned out to be 0.602 µg/mL.

In the case of B9, the “pseudovirus neutralization IC50” value is 0.161 µg/mL.

Consider B10, for which the “pseudovirus neutralization IC50” value came to 0.249 µg/mL.

Take B11: the “pseudovirus neutralization IC50” value was above 10 µg/mL.

Turning to B12, the “pseudovirus neutralization IC50” value stood at 0.538 µg/mL.

For another assay, the target named is SARS-CoV-2 Omicron BA.2 spike pseudovirus. Described as above. As for the experimental part:
as §1
Turning to B1, the “pseudovirus neutralization IC50” value was above 10 µg/mL.

As to B2, the “pseudovirus neutralization IC50” value is 0.0138 µg/mL.

On to B3, for which the “pseudovirus neutralization IC50” value was above 10 µg/mL.

Take B4: the “pseudovirus neutralization IC50” value was above 10 µg/mL.

On to B5, for which the “pseudovirus neutralization IC50” value came out at 0.275 µg/mL.

Take B6: the “pseudovirus neutralization IC50” value was 1.58 µg/mL.

B7: the “pseudovirus neutralization IC50” value was determined as 0.817 µg/mL.

Consider B8, for which the “pseudovirus neutralization IC50” value was found to be 1.34 µg/mL.

On to B9, for which the “pseudovirus neutralization IC50” value is 0.24 µg/mL.

For the molecule B10, the “pseudovirus neutralization IC50” value was 0.302 µg/mL.

As for B11, the “pseudovirus neutralization IC50” value is above 10 µg/mL.

For B12, the “pseudovirus neutralization IC50” value was found to be 1.07 µg/mL.

Another assay deals with SARS-CoV-2 Omicron BA.2.75 spike pseudovirus. The description is as above. The method, then: as §1
With B1, the “pseudovirus neutralization IC50” value is above 10 µg/mL.

As to B2, the “pseudovirus neutralization IC50” value came to 0.143 µg/mL.

On to B3, for which the “pseudovirus neutralization IC50” value is above 10 µg/mL.

As to B4, the “pseudovirus neutralization IC50” value is above 10 µg/mL.

As for B5, the “pseudovirus neutralization IC50” value stood at 1.32 µg/mL.

Turning to B6, the “pseudovirus neutralization IC50” value was determined as 2.83 µg/mL.

As for B7, the “pseudovirus neutralization IC50” value worked out at 1.67 µg/mL.

Regarding B8, the “pseudovirus neutralization IC50” value was determined as 0.663 µg/mL.

For B9, the “pseudovirus neutralization IC50” value is 0.218 µg/mL.

On to B10, for which the “pseudovirus neutralization IC50” value is 0.235 µg/mL.

For B11, the “pseudovirus neutralization IC50” value is above 10 µg/mL.

B12: the “pseudovirus neutralization IC50” value was 1.03 µg/mL.

The target in another assay is SARS-CoV-2 Omicron BA.5 spike pseudovirus. The description is as above. As for the experimental part: as §1
For the molecule B1, the “pseudovirus neutralization IC50” value is above 10 µg/mL.

Take B2: the “pseudovirus neutralization IC50” value amounted to 0.0129 µg/mL.

For B3, the “pseudovirus neutralization IC50” value was above 10 µg/mL.

Consider B4, for which the “pseudovirus neutralization IC50” value is above 10 µg/mL.

With B5, the “pseudovirus neutralization IC50” value was 1.11 µg/mL.

As for B6, the “pseudovirus neutralization IC50” value turned out to be 1.45 µg/mL.

With B7, the “pseudovirus neutralization IC50” value was found to be 0.932 µg/mL.

As to B8, the “pseudovirus neutralization IC50” value was above 10 µg/mL.

On to B9, for which the “pseudovirus neutralization IC50” value was above 10 µg/mL.

As for B10, the “pseudovirus neutralization IC50” value is above 10 µg/mL.

In the case of B11, the “pseudovirus neutralization IC50” value was above 10 µg/mL.

For the molecule B12, the “pseudovirus neutralization IC50” value was found to be 1.13 µg/mL.

The next assay addresses SARS-CoV-2 Omicron BQ.1.1 spike pseudovirus. The description is as above. The method, then: as §1
For the molecule B1, the “pseudovirus neutralization IC50” value is above 10 µg/mL.

As for B2, the “pseudovirus neutralization IC50” value was above 10 µg/mL.

In the case of B3, the “pseudovirus neutralization IC50” value was above 10 µg/mL.

Consider B4, for which the “pseudovirus neutralization IC50” value was above 10 µg/mL.

On to B5, for which the “pseudovirus neutralization IC50” value is above 10 µg/mL.

B6: the “pseudovirus neutralization IC50” value came to 1.85 µg/mL.

Regarding B7, the “pseudovirus neutralization IC50” value worked out at 1.34 µg/mL.

On to B8, for which the “pseudovirus neutralization IC50” value was above 10 µg/mL.

As to B9, the “pseudovirus neutralization IC50” value was above 10 µg/mL.

Regarding B10, the “pseudovirus neutralization IC50” value was above 10 µg/mL.

Consider B11, for which the “pseudovirus neutralization IC50” value was above 10 µg/mL.

B12: the “pseudovirus neutralization IC50” value worked out at 3.4 µg/mL.

Another assay has as its target SARS-CoV-2 Omicron XBB spike pseudovirus. The description is as above. The method, then:
as §1
With B1, the “pseudovirus neutralization IC50” value is above 10 µg/mL.

For B2, the “pseudovirus neutralization IC50” value is above 10 µg/mL.

In the case of B3, the “pseudovirus neutralization IC50” value was above 10 µg/mL.

With B4, the “pseudovirus neutralization IC50” value is above 10 µg/mL.

With B5, the “pseudovirus neutralization IC50” value was above 10 µg/mL.

For B6, the “pseudovirus neutralization IC50” value worked out at 2.56 µg/mL.

As for B7, the “pseudovirus neutralization IC50” value stood at 1.34 µg/mL.

B8: the “pseudovirus neutralization IC50” value came out at 0.942 µg/mL.

B9: the “pseudovirus neutralization IC50” value worked out at 2.75 µg/mL.

As to B10, the “pseudovirus neutralization IC50” value stood at 1.92 µg/mL.

As for B11, the “pseudovirus neutralization IC50” value is above 10 µg/mL.

Consider B12, for which the “pseudovirus neutralization IC50” value is 4.28 µg/mL.

Another assay addresses SARS-CoV-2 early D614G spike pseudovirus. The description is as above. The method, then:
as §1
Turning to B1, the “pseudovirus neutralization IC50” value is above 10 µg/mL.

As to B2, the “pseudovirus neutralization IC50” value was above 10 µg/mL.

B3: the “pseudovirus neutralization IC50” value stood at 2.51 µg/mL.

B4: the “pseudovirus neutralization IC50” value was above 10 µg/mL.

On to B5, for which the “pseudovirus neutralization IC50” value was 0.0114 µg/mL.

Take B6: the “pseudovirus neutralization IC50” value is above 10 µg/mL.

As for B7, the “pseudovirus neutralization IC50” value turned out to be 0.232 µg/mL.

For the molecule B8, the “pseudovirus neutralization IC50” value is above 10 µg/mL.

For B9, the “pseudovirus neutralization IC50” value came out at 0.362 µg/mL.

On to B10, for which the “pseudovirus neutralization IC50” value was determined as 0.38 µg/mL.

Turning to B11, the “pseudovirus neutralization IC50” value is above 10 µg/mL.

Consider B12, for which the “pseudovirus neutralization IC50” value was determined as 2.64 µg/mL.
